Experiment: absorbance spectrum studies (amide I band) on hydrated human toe nails
Conditions: toe nails hydrated in heavy water

[2H]O[2H] [heavy water]
conformational alterations by hydration alone: hydration alone does not result in conformational alterations
